Key:
[1] = system: Fusarium oxysporum f. sp. radicis-lycopersici (FORL); settings: 30 mg/Kg (ppm, w/w); 7 days; preliminary studies
[2] = system: Sclerotium rolfsii; assay: Viability of Sclerotium sclerotia in treated soil (BromoCresol Green method); assay type: cell-based; settings: 30 mg/Kg (ppm, w/w); 7 days; preliminary studies

O=[N+]([O-])C(Br)Br
control of FORL in soil (percent survival, FIG. 6) [1]: effective in controlling soil-borne fungi | control of S. rolfosii in soil (percent survival, FIG. 6) [2]: effective in controlling soil-borne fungi

From patent US20070249501A1 (priority 2004, published 2007)
